Pooled drug test results. Numbers come from NIAID ChemDB, via PubChem.

All rows: tests on isolated targets

ICn is the concentration giving n% inhibition. Lines come from different laboratories, so protocols vary. Inhibition is in % at the dose shown (toxicity tests: loss of growth or viability). An empty or dashed field is not shown. a–b is a range or a potency band.

smiles,strain or isolate,method,protein,endpoint,species,dose,value
COc1ccccc1-c1cc(-c2ccc(Oc3ccccc3)cc2)nc2cc(C(=O)O)nn12,,,RNA-dependent RNA polymerase,IC50,Hepatitis C virus,,1–10 µM
COc1ccc(-c2cccc(C)c2)c(-c2ccc3cc(-c4nc5cc(C(=O)O)ccc5n4C4CCCCC4)ccc3n2)c1,,,NS5B polymerase,inhibition,Hepatitis C virus,33 µM,103%
Cc1cc(NS(=O)(=O)c2cc(Cl)c(Cl)cc2Cl)no1,gt 1,nucleotide incorporation,HCV NS5B polymerase,IC50,Hepatitis C virus,,100 µM
COc1nc(Nc2ccc3cn[nH]c3c2)nc(N2CCN(C)CC2)n1,,,DNA polymerase,inhibition,Hepatitis B virus,0.1 µg/mL,14%
CCC[C@]1(CC(=O)O)OCCc2c1[nH]c1c(C)ccc(C#N)c21,207-221 genotype 1A,,NS5B polymerase,IC50,Hepatitis C virus,,0.7 µM
COc1ccc(-c2ccc(Cl)cc2)c(-c2ccc3cc(-c4nc5cc(C(=O)O)ccc5n4CC4CCCO4)ccc3n2)c1,,,NS5B polymerase,inhibition,Hepatitis C virus,33 µM,99.17%
COc1nc(NCCCN2CCCC2=O)nc(Nc2ccc3cn[nH]c3c2)n1,,,DNA polymerase,IC50,Hepatitis B virus,,>1 µg/mL
CN(C)c1ccc(-c2nc3ccccc3[nH]2)cc1,1b,,NS5B RdRp activity,inhibition,Hepatitis C virus,100 µM,14.6%
O=C(O)c1ccc2c(c1)nc(-c1ccc3nc(-c4cc(C(=O)N5CCCC5)ccc4-c4ccc(F)cc4)ccc3c1)n2C1CCCCC1,,,NS5B polymerase,inhibition,Hepatitis C virus,100 µM,102%
CC(=O)N[C@H](C(=O)N[C@H](C(=O)N1C[C@H](Oc2ccccc2)CC1C(=O)NC1(C(=O)O)CC1)C(C)C)C1CCCCC1,,,NS3 protease,IC50,Hepatitis C virus,,80 µM
NS(=O)(=O)c1ccc(CCNc2cc(C(=O)Nc3ccc4cn[nH]c4c3)c(F)cc2F)cc1,,,Reverse transcriptase,inhibition,Hepatitis B virus,0.01 µg/mL,39%
CC[C@@H](C=O)NC(=O)[C@@H]1C[C@@H](OCc2cnc(-c3ccc(Cl)cc3)s2)CN1C(=O)[C@@H](NC(=O)[C@@H](NC(=O)c1cnccn1)C(C)C)C(C)C,,,NS3 protease,Ki,Hepatitis C virus,,1–100 µM
O=C(CCCCCCCCCC(=O)Nc1ccc(-c2nc3ccccc3[nH]2)cc1)Nc1ccc(-c2nc3ccccc3[nH]2)cc1,,,Nonstructural protein 3 NTPase/helicase,IC50,Hepatitis C virus,,0.7 µM
C=CC1C[C@@]1(NC(=O)[C@@H]1C[C@@H](Oc2cc(-c3ccccc3)nc3cc(OC)ccc23)CN1C(=O)[C@@H](NC(=O)Oc1ccccc1)C(C)(C)C)C(=O)NS(=O)(=O)C1(Cc2ccccc2)CC1,BMS,,NS3/NS4A protease,IC50,Hepatitis C virus,,0.05–0.5 µM
O=C(NCCSSCCNC(=O)/C(Cc1ccc(O)c(Br)c1)=N/O)/C(Cc1ccc(O)c(Br)c1)=N\O,,fluorescence,NS3 helicase,IC50,Hepatitis C virus,,17 µM
O=c1c(O)c(-c2ccc(O)c(O)c2)oc2cc(O)c(O)c(O)c12,genotype 1b,nucleotide incorporation,RdRp,IC50,Hepatitis C virus,,4.3 µM
O=C(O)c1cc2nc(-c3ccc(Cl)cc3)cc(-c3ccccc3Cl)n2n1,,,RNA-dependent RNA polymerase,IC50,Hepatitis C virus,,>10 µM
C=CC1C[C@@]1(NC(=O)[C@@H]1C[C@@H](Oc2cc(-c3ccccc3)nc3cc(OC)ccc23)CN1C(=O)[C@@H](NC(=O)OCC(C)(C)C)C(C)(C)C)C(=O)NS(=O)(=O)C1(Cc2ccccc2)CC1,BMS,,NS3/NS4A protease,IC50,Hepatitis C virus,,<0.05 µM
O=C(O)c1ccc2c(c1)nc(-c1ccc3nc(C(c4ccccc4)c4ccccc4)ccc3c1)n2C1CCCCC1,,,NS5B polymerase,inhibition,Hepatitis C virus,33 µM,98.21%
CCOC(=O)C1CCN(c2nc(Nc3ccc4[nH]ncc4c3)nc(OC)n2)CC1,,,Nonstructural protein 5B,inhibition,Hepatitis C virus,0.1 µg/mL,0%
CC(C)c1ccc(-c2nc3ccccc3[nH]2)cc1,1b,,NS5B RdRp activity,inhibition,Hepatitis C virus,100 µM,10.9%
C/C(=C\CCC1=CC[C@H](C2=CC(=O)O[C@@H]2O)O[C@H]1O)CCC1C(C)CCCC1(C)C,,,NS3 RNA helicase activity,IC50,Hepatitis C virus,,15 µM
CCN(CCO)c1cc(C(=O)Nc2ccc3cn[nH]c3c2)c(F)cc1F,,,Reverse transcriptase,IC50,Hepatitis B virus,,0.01–0.1 µg/mL
N#Cc1cnn2c(C3CCCCC3)c(-c3ccc(OCc4ccccc4)cc3)cnc12,,,RNA-dependent RNA polymerase,IC50,Hepatitis C virus,,>10 µM
O=C(O)c1ccc2c(c1)nc(-c1ccc3nc(-c4ccccc4-c4ccc(Cl)cc4)c(-c4ccccc4)cc3c1)n2C1CCCCC1,,,NS5B polymerase,inhibition,Hepatitis C virus,33 µM,99.15%
COc1ccc2c(O[C@@H]3C[C@@H](C(=O)N[C@@]4(C(=O)NS(=O)(=O)C5(Cc6ccccc6)CC5)CC4C4CC4)N(C(=O)[C@@H](NC(=O)OC(C)(C)C)C(C)(C)C)C3)cc(-c3ccccc3)nc2c1,BMS,,NS3/NS4A protease,IC50,Hepatitis C virus,,0.05–0.5 µM
COc1nc(Nc2ccc3cn[nH]c3c2)nc(NN2CCOCC2)n1,,,Nonstructural protein 5B,inhibition,Hepatitis C virus,0.1 µg/mL,10%
O=C(Nc1ccc2cn[nH]c2c1)c1cc(NCCN2CCOCC2)c(F)cc1F,,,Reverse transcriptase,inhibition,Hepatitis B virus,0.1 µg/mL,36%
CC[C@H](C)[C@]1(CC(=O)O)OCCc2c1[nH]c1c(C)c(OCCn3cccn3)cc(C#N)c21,BK,nucleotide incorporation,HCV polymerase,IC50,Hepatitis C virus,,0.012 µM
O=C(O)c1cc(Br)ccc1NS(=O)(=O)c1cc(Cl)c(Cl)cc1Cl,gt 1,nucleotide incorporation,HCV NS5B polymerase,IC50,Hepatitis C virus,,9 µM
O=c1c(O[C@@H]2OC[C@H](O)[C@H](O)[C@H]2O)c(-c2ccc(O)c(O)c2)oc2cc(O)cc(O)c12,,,Nonstructural protein 3 protease,inhibition,Hepatitis C virus,100 µM,50.1%
C=Cc1ccc(C(N)C(=O)Nc2cccc(C(=O)NS(=O)(=O)c3ccc(C(F)(F)F)cc3)c2)cc1Oc1cc(OC)nc(-c2ccccc2)n1,GT1a,FRET,Nonstructural protein 3/4A,Ki,Hepatitis C virus,,1.2 µM
COCCNc1nc(Nc2ccc3[nH]ncc3c2)nc(OC)n1,,,DNA polymerase,inhibition,Hepatitis B virus,1 µg/mL,73%
CC(=O)N[C@H](C(=O)N[C@H](C(=O)N1C[C@H](Oc2nccc3ccccc23)CC1C(=O)NC1(C(=O)O)CC1)C(C)C)C1CCCCC1,,,NS3 protease,IC50,Hepatitis C virus,,8 µM
Fc1ccc(-c2nc3ccccc3[nH]2)cc1F,1b,,NS5B RdRp activity,inhibition,Hepatitis C virus,100 µM,0%
O=C(Nc1ccc2cn[nH]c2c1)c1cc(NCCc2ccccn2)c(F)cc1F,,,Reverse transcriptase,inhibition,Hepatitis B virus,0.01 µg/mL,30%
O=C(O)CC(=O)Nc1cnn2c(C3CCCCC3)c(-c3ccc(OCc4ccccc4)cc3)cnc12,,,RNA-dependent RNA polymerase,IC50,Hepatitis C virus,,1–10 µM
CC[C@@H](C=O)NC(=O)[C@@H]1C[C@@H](OCc2ccccc2)CN1C(=O)[C@@H](NC(=O)c1c(C)noc1C)C(C)C,,,NS3 protease,Ki,Hepatitis C virus,,>100 µM
C=C[C@H]1C[C@@]1(NC(=O)[C@@H]1C[C@@H](Oc2cc(-c3ccccc3)nc3cc(OC)ccc23)CN1C(=O)[C@@H](NC(=O)OCC1CCOCC1)C(C)(C)C)C(=O)NS(=O)(=O)C1(Cc2ccccc2)CC1,BMS,,NS3/NS4A protease,IC50,Hepatitis C virus,,<0.05 µM
C=Cc1ccc(C(NC(=O)[C@@H](NC(=O)OC(C)(C)C)C(C)(C)C)C(=O)Nc2ccccc2C(=O)NS(=O)(=O)c2ccc(C(F)(F)F)cc2)cc1Oc1cc(OC)nc(-c2ccccc2)n1,GT1a,FRET,Nonstructural protein 3/4A,Ki,Hepatitis C virus,,0.045 µM
O=C(NCCS(=O)(=O)O)c1ccc2c(c1)nc(-c1ccc3nc(-c4ccccc4)cnc3c1)n2C1CCCCC1,,,NS5B polymerase,inhibition,Hepatitis C virus,100 µM,93.58%
O=C(N[C@H](Cc1c[nH]c2ccccc12)C(=O)O)c1cnn2c(C3CCCCC3)c(-c3ccc(F)cc3)cnc12,,,RNA-dependent RNA polymerase,IC50,Hepatitis C virus,,<1 µM
CC(C)CNc1cc(C(=O)Nc2ccc3cn[nH]c3c2)c(F)cc1F,,,Reverse transcriptase,inhibition,Hepatitis B virus,0.01 µg/mL,18%
COc1nc(Nc2ccc3[nH]ncc3c2)nc(N2CCC(O)CC2)n1,,,DNA polymerase,inhibition,Hepatitis B virus,0.01 µg/mL,25%
NC(=O)CNC(=O)c1ccc(-c2ccccc2)c(-c2ccc3cc(-c4nc5cc(C(=O)O)ccc5n4C4CCCCC4)ccc3n2)c1,,,NS5B polymerase,inhibition,Hepatitis C virus,100 µM,99.42%
C=Cc1ccc(C(NC(=O)N2CCOCC2)C(=O)Nc2cccc(C(=O)NS(=O)(=O)c3ccc(C(F)(F)F)cc3)c2)cc1Oc1cc(OC)nc(-c2ccccc2)n1,GT1a,FRET,Nonstructural protein 3/4A,Ki,Hepatitis C virus,,0.59 µM
COc1ccc(-c2ccc(O[C@@H]3CC(C(=O)NC4(C(=O)O)CC4)N(C(=O)[C@@H](NC(=O)[C@@H](NC(C)=O)C4CCCCC4)C(C)C)C3)cc2)cc1,,,NS3 protease,IC50,Hepatitis C virus,,35 µM
COc1ccc2c(O[C@@H]3C[C@H]4C(=O)N[C@]5(C(=O)NS(=O)(=O)C6CC6)C[C@H]5/C=C\CCCCN(NC(=O)OC(C)(C)C)C(=O)[C@@H]4C3)cc(-c3ccccc3)nc2c1,1a,,Nonstructural protein 3/4A,Ki,Hepatitis C virus,,0.000007 µM
O=c1c(O[C@@H]2O[C@H](CO)[C@@H](O)[C@H](O)[C@H]2O)c(-c2ccc(O)c(O)c2)oc2cc(O)cc(O)c12,,,Nonstructural protein 3 protease,IC50,Hepatitis C virus,,<100 µM
CC[C@@H](C=O)NC(=O)[C@@H]1C[C@@H](OCc2ccccc2)CN1C(=O)[C@@H](NC(=O)[C@@H](NC(C)=O)C(C)C)C(C)C,,,NS3 protease,Ki,Hepatitis C virus,,1–100 µM
C=Cc1ccc(C(NC(=O)[C@@H](NC(=O)OC(C)(C)C)C(C)(C)C)C(=O)Nc2cccc(C(=O)NS(=O)(=O)c3ccc(C(F)(F)F)cc3)c2)cc1Oc1cc(OC)nc(-c2ccccc2)n1,GT1a,FRET,Nonstructural protein 3/4A,Ki,Hepatitis C virus,,0.024 µM
O=C(O)c1ccc2c(c1)nc(-c1ccc3nc(-c4c(O)ccc5ccccc45)ccc3c1)n2C1CCCCC1,,,NS5B polymerase,inhibition,Hepatitis C virus,33 µM,101%
CCn1c(-c2ccccc2OCc2ccc(Cl)cc2)nc2ccccc21,1b,,NS5B RdRp activity,inhibition,Hepatitis C virus,100 µM,0%
CC(=O)N[C@H](C(=O)N[C@H](C(=O)N1C[C@H](Oc2ccccc2-c2ccccc2)CC1C(=O)NC1(C(=O)O)CC1)C(C)C)C1CCCCC1,,,NS3 protease,IC50,Hepatitis C virus,,>200 µM
CON1C(Nc2ccc3cn[nH]c3c2)=NC(NC(C)C)=NC1NC(C)C,,,DNA polymerase,inhibition,Hepatitis B virus,0.01 µg/mL,39%
O=C(O)c1cc2nc(-c3ccc(-c4cc5ccccc5o4)cc3)c(C3CCCCC3)c(=O)n2[nH]1,,,RNA-dependent RNA polymerase,IC50,Hepatitis C virus,,1–10 µM
CCCCCCCCCCCCCC1=C(O)C(=O)C=C(O)C1=O,,,Nonstructural protein 3 protease,inhibition,Hepatitis C virus,100 µM,100%

For reference, 3 entries again:

smiles	strain or isolate	method	protein	endpoint	species	dose	value
CC(=O)N[C@H](C(=O)N[C@H](C(=O)N1C[C@H](Oc2ccccc2-c2ccccc2)CC1C(=O)NC1(C(=O)O)CC1)C(C)C)C1CCCCC1			NS3 protease	IC50	Hepatitis C virus		>200 µM
CCOC(=O)C1CCN(c2nc(Nc3ccc4[nH]ncc4c3)nc(OC)n2)CC1			Nonstructural protein 5B	inhibition	Hepatitis C virus	0.1 µg/mL	0%
Fc1ccc(-c2nc3ccccc3[nH]2)cc1F	1b		NS5B RdRp activity	inhibition	Hepatitis C virus	100 µM	0%